Measured values from several laboratories, pooled; numbers as filed in NIAID ChemDB.

Shared fields: host cell toxicity; cells: H9; read-out: CC50

Conditions beyond the fields shown may differ between rows.

smiles	result
CC1(C)Oc2ccc3ccc(=O)oc3c2[C@H](OC(=O)C23CCC(C)(C(=O)O2)C3(C)C)[C@@H]1OC(=O)C12CCC(C)(C(=O)O1)C2(C)C	159 µM
Nc1nc2c(ncn2[C@H]2C=C[C@@H](CO)C2)c(=O)[nH]1	>2000 µM
C=C(C)[C@@H]1CC[C@]2(COC(=O)CC3(CC(=O)O)CCCC3)CC[C@]3(C)[C@H](CC[C@@H]4[C@@]5(C)CC[C@H](O)C(C)(C)[C@@H]5CC[C@]43C)[C@@H]12	13.3 µM
CC(C)[C@@H]1CC[C@]2(C(=O)O)CC[C@]3(C)[C@H](CC[C@@H]4[C@@]5(C)CC[C@H](OC(=O)CCCC(=O)O)C(C)(C)[C@@H]5CC[C@]43C)[C@@H]12	7.9 µM
C=C(C)[C@@H]1CC[C@]2(COC(=O)CC(C)CC(=O)O)CC[C@]3(C)[C@H](CC[C@@H]4[C@@]5(C)CC[C@H](OC(=O)CC(C)CC(=O)O)C(C)(C)[C@@H]5CC[C@]43C)[C@@H]12	20.7 µM
CC(CCC(=O)N[C@@H](Cc1ccc(O)cc1)C(=O)O)C1CCC2C3CCC4C[C@H](O)CCC4(C)C3C[C@H](O)C12C	>500 µg/mL
CCNc1cccnc1N1CCN(Cc2cc(C)c(OC)c(C)c2)CC1	10 µM
CC(C)[C@@H]1CC[C@]2(C(=O)O)CC[C@]3(C)[C@H](CC[C@@H]4[C@@]5(C)CC[C@H](OC(=O)COCC(=O)O)C(C)(C)[C@@H]5CC[C@]43C)[C@@H]12	13.1 µM
CC(C)CCC[C@@H](C)[C@H]1CCC2C3CCC4C[C@@H](O[C@H]5O[C@H](COS(=O)(=O)[O-])[C@@H](OS(=O)(=O)[O-])[C@H](OS(=O)(=O)[O-])[C@@H]5O[C@H]5O[C@H](COS(=O)(=O)[O-])[C@@H](OS(=O)(=O)[O-])[C@H](O[C@H]6O[C@H](COS(=O)(=O)[O-])[C@@H](OS(=O)(=O)[O-])[C@H](O[C@H]7O[C@H](COS(=O)(=O)[O-])[C@@H](OS(=O)(=O)[O-])[C@H](OS(=O)(=O)[O-])[C@@H]7OS(=O)(=O)[O-])C6OS(=O)(=O)[O-])[C@@H]5OS(=O)(=O)[O-])CC[C@]4(C)C3CC[C@@]21C	>800 µg/mL
CCCCCCCCCCCCCCCCCCCCCC(=O)OC[C@H](CO[C@]1(C(=O)O)C[C@H](OS(=O)(=O)O)[C@@H](OS(=O)(=O)O)[C@H]([C@H](OS(=O)(=O)O)[C@@H](COS(=O)(=O)O)OS(=O)(=O)O)O1)OC(=O)CCCCCCCCCCCCCCCCCCCCC	>200 µM
COC(=O)C12OC[C@]34[C@H]([C@@H](O)[C@@H]1O)[C@@]1(C)[C@H](O)C(=O)C(O[C@@H]5O[C@H](CO)[C@@H](O)[C@H](O)[C@H]5O)=C(C)[C@@H]1C[C@H]3OC(=O)[C@H](OC(=O)CC(C)C)[C@@H]24	4 µM
CCCCCCCCCCCCCCOC[C@H](CO[C@@]1(C(=O)O)C[C@H](OS(=O)(=O)O)[C@@H](NC(C)=O)[C@H]([C@H](OS(=O)(=O)O)[C@@H](COS(=O)(=O)O)OS(=O)(=O)O)O1)OCCCCCCCCCCCCCC	>200 µM
CC(C)[C@@H]1CC[C@]2(C(=O)OCc3ccccc3)CC[C@]3(C)[C@H](CC[C@@H]4[C@@]5(C)CC[C@H](OC(=O)CC(C)(C)C(=O)O)C(C)(C)[C@@H]5CC[C@]43C)[C@@H]12	13 µM
CC1(C)Oc2ccc3ccc(=O)oc3c2[C@H](OC(=O)C23CCC(C)(C(=O)O2)C3(C)C)[C@@H]1OC(=O)C12CCC(C)(C(=O)O1)C2(C)C	1700 µM
Nc1ccn(C2C[C@H](CO)[C@@H](CO)C2)c(=O)n1	>100 µg/mL
COc1c(Br)c(C(=O)O)c(-c2c3c(c(OC)c(Br)c2C(=O)ONCCN2CCCC2)OCO3)c2c1OCO2	>100 µg/mL
CCc1cn([C@@H]2C[C@H](F)[C@@H](CO)O2)c(=O)[nH]c1=O	400 µM
CC1=CCC[C@H]2[C@](C)(CC3=CC(=O)C=CC3=O)[C@@H](C)CC[C@]12C	>1 µg/mL
CC1CCC(C(C)C)C(OC(=O)OC2c3c(ccc4ccc(=O)oc34)OC(C)(C)C2OC(=O)OC2CC(C)CCC2C(C)C)C1	33.06 µM
C=C(C)[C@@H]1CC[C@]2(CN)CC[C@]3(C)[C@H](CC[C@@H]4[C@@]5(C)CC[C@H](N)C(C)(C)[C@@H]5CC[C@]43C)[C@@H]12	0.52 µM
COc1c(Br)c(C(=O)O)c(-c2c3c(c(OC)c(Br)c2C(=O)O)OCO3)c2c1OCO2	>100 µg/mL
CCCCCCCCCCCCCCCCCCCCCCOCC(C)(COCCCCCCCCCCCCCCCCCCCCCC)CO[C@]1(C(=O)O)C[C@H](OS(=O)(=O)O)[C@@H](NC(C)=O)[C@H]([C@H](OS(=O)(=O)O)[C@@H](COS(=O)(=O)O)OS(=O)(=O)O)O1	>100 µg/mL
Cc1cc(=O)c2c(O)c3c(O)cc(O)c4c5c(O)cc(O)c6c(O)c7c(=O)cc(C)c8c1c2c(c34)c(c65)c78	<2 µg/mL
CC1(C)Oc2ccc3ccc(=O)oc3c2C(N=[N+]=[N-])C1O	335 µM
Nc1ccn([C@H]2CS[C@@H](CO)O2)c(=O)n1	17 µM
CC1(C)Oc2ccc3ccc(=O)oc3c2C(O)C1OCc1ccccc1	116.1 µM
COc1ccc2[nH]c(C(=O)N3CCN(c4ncccc4NC(C)C)CC3)cc2c1	63 µM
CCCCCCCCCCCCCCCCCCOC[C@H](CO[C@]1(C(=O)O)C[C@H](OS(=O)(=O)O)[C@@H](NC(C)=O)[C@H]([C@H](OS(=O)(=O)O)[C@@H](COS(=O)(=O)O)OS(=O)(=O)O)O1)OCCCCCCCCCCCCCCCCCC	>20 µM
CC(C)CC(=O)O[C@H]1CC[C@]2(C)[C@H]3CC[C@@H]4[C@H]5[C@H](C(C)C)CC[C@]5(C(=O)O)CC[C@@]4(C)[C@]3(C)CC[C@H]2C1(C)C	83 µM
C=C(C)[C@@H]1CC[C@]2(CNC(=O)CC3(CC(=O)O)CCCC3)CC[C@]3(C)[C@H](CC[C@@H]4[C@@]5(C)CC[C@H](NC(=O)CC6(CC(=O)O)CCCC6)C(C)(C)[C@@H]5CC[C@]43C)[C@@H]12	15 µM
C[C@H](CCC(=O)O)[C@H]1CC[C@H]2[C@@H]3CC[C@@H]4C[C@H](O)CC[C@]4(C)[C@H]3C[C@H](O)[C@]12C	>500 µg/mL
CC(C)[C@@H]1CC[C@]2(COC(=O)CCC(=O)O)CC[C@]3(C)[C@H](CC[C@@H]4[C@@]5(C)CC[C@H](OC(=O)CCC(=O)O)C(C)(C)[C@@H]5CC[C@]43C)[C@@H]12	28.8 µM
CC(S)C(=O)NCC(=O)O	~1000 µg/mL
C=C(C)[C@@H]1CC[C@]2(C(=O)NCCCCCCCC(=O)N[C@@H](CC(C)C)[C@@H](O)CC(=O)O)CC[C@]3(C)[C@H](CC[C@@H]4[C@@]5(C)CC[C@H](O)C(C)(C)[C@@H]5CC[C@]43C)[C@@H]12	2.7 µM
C=C(COC(C)=O)[C@@H]1CC[C@]2(COC(C)=O)CC[C@]3(C)[C@H](CC[C@@H]4[C@@]5(C)CC[C@H](OC(C)=O)C(C)(C)[C@@H]5CC[C@]43C)[C@@H]12	25 µM

3 of the rows above, restated:

smiles,result
CCNc1cccnc1N1CCN(Cc2cc(C)c(OC)c(C)c2)CC1,10 µM
C=C(C)[C@@H]1CC[C@]2(CNC(=O)CC3(CC(=O)O)CCCC3)CC[C@]3(C)[C@H](CC[C@@H]4[C@@]5(C)CC[C@H](NC(=O)CC6(CC(=O)O)CCCC6)C(C)(C)[C@@H]5CC[C@]43C)[C@@H]12,15 µM
COc1ccc2[nH]c(C(=O)N3CCN(c4ncccc4NC(C)C)CC3)cc2c1,63 µM

CCn is the concentration with n% toxicity to the cells.